This is an account of results in patent US20180264072A1, “Polypeptides comprising vinculin binding sites for the treatment of proliferation and/or adhesion related diseases” (published 2018).

For the experiment, the target named is talin in HeLa cells (UniProt Q9Y490). The experiment in a line: cell-based or functional assay.

“IpaA ΔVBS1-2 (deleted for residues IpaA 550-633)” returned a percentage of foci forming talin coat structures of 19%.

The substance “IpaA ΔVBS3 (deleted for residues IpaA 489-511)” returned a percentage of foci forming talin coat structures of 25%.
